“Also recorded” adds a separate entry of the source.
Columns and labels:
[1] = system: crustaceans (Porcellio); details: ref [2]; cited from earlier work
[2] = target: human CaV3.2 (Homo sapiens, UniProt O95180); test: Whole-cell patch-clamp (QPatch 16 X), CaV3.2
[3] = system: human CaV3.1; test: Whole-cell patch-clamp (QPatch 16 X), CaV3.1
[4] = system: mammalian NaV channels; details: ref [4]; cited from earlier work
[5] = system: rat brain NaVs; details: cited from earlier work
[6] = system: molluscs (Patella); details: ref [2]; cited from earlier work
[7] = system: human CaV3.3; test: Whole-cell patch-clamp (QPatch 16 X), CaV3.3; details: n = 6, 10 µM in representative trace, Vmax −10 mV, holding −90 mV
[8] = system: snails; details: ref [1]; cited from earlier work
[9] = system: mouse NaV1.7; test: Sodium channel FLIPR assay, transiently transfected NaV1.7 HEK293T cells; details: 10 µM, FLIPR red membrane potential dye, veratridine 40–50 µM agonist, pH 7.4, n = 2, p = 0.29
[10] = system: lobsters; details: ref [1]; cited from earlier work
[11] = system: fish (Cambusia); details: ref [2]; cited from earlier work
[12] = system: insects (Sarcophaga); details: ref [2]; cited from earlier work
[13] = system: human NaV channels endogenously expressed in SH-SY5Y cells (NaV1.2 and NaV1.7); test: Sodium channel FLIPR assay, SH-SY5Y cells; details: 5 µM, FLIPR red membrane potential dye, veratridine 40–50 µM agonist, pH 7.4, n = 3, p = 0.37

Chains of the proteins cited; added tags and fusions are not shown. Lines headed by an entry give the natural chain unless they say otherwise; changes in a name come on top.
UniProt O95180: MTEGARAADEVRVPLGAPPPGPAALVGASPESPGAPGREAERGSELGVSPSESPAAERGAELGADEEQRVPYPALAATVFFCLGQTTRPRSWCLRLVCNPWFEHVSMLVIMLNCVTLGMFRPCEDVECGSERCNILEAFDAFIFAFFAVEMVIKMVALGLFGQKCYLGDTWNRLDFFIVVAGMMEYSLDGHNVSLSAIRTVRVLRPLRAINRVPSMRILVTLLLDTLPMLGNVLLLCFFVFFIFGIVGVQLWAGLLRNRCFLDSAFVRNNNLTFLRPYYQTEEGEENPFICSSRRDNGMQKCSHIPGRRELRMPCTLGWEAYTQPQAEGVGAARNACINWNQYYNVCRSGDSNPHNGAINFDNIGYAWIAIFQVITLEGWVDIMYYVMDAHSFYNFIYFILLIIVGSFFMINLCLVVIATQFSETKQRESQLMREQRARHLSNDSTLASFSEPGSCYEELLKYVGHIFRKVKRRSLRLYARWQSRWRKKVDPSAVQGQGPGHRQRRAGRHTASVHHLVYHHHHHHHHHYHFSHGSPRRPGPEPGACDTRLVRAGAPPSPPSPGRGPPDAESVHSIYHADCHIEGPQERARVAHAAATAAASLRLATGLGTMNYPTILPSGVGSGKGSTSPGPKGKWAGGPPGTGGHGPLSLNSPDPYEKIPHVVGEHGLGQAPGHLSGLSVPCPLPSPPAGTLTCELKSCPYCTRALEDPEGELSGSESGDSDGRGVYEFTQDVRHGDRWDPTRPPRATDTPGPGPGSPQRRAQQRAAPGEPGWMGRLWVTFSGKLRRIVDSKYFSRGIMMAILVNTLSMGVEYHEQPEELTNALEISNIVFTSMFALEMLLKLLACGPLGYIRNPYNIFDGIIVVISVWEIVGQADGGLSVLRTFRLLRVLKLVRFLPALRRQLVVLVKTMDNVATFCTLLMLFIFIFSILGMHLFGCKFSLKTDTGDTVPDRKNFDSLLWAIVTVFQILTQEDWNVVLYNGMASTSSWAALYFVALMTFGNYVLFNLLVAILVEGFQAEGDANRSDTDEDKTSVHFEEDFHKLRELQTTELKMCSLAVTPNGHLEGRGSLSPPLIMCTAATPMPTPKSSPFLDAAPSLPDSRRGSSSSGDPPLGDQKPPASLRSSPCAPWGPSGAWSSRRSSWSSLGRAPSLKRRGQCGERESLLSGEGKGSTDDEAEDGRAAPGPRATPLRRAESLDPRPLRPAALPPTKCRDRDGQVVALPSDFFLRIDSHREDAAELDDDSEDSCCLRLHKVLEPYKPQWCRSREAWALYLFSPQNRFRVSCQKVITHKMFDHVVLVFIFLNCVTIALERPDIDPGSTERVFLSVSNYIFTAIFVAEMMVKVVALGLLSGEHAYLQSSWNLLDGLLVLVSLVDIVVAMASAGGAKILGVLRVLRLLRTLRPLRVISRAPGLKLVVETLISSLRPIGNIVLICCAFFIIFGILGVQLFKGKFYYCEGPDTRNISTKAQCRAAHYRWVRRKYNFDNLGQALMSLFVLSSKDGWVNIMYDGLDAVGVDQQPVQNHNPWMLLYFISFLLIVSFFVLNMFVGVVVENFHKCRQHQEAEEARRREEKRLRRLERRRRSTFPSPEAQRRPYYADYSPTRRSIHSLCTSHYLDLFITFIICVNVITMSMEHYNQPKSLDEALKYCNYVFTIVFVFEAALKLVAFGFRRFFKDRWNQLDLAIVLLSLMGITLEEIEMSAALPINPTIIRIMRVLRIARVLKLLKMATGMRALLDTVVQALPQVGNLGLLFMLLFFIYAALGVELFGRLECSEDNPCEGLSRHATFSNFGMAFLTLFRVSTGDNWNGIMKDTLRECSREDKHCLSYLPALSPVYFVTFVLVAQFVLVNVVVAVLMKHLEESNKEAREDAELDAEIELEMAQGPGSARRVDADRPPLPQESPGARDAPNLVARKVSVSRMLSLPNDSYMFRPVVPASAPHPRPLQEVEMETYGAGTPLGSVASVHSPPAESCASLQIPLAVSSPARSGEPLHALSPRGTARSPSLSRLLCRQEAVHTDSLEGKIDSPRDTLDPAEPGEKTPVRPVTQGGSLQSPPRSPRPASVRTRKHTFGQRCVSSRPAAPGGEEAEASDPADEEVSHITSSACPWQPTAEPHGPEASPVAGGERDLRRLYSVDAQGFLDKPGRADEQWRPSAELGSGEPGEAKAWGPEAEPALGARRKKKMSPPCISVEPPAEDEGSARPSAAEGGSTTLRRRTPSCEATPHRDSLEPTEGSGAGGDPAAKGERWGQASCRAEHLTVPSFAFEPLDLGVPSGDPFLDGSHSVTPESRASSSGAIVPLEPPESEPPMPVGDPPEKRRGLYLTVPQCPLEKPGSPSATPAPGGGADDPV

CC[C@H](C)[C@@H]1NC(=O)[C@@H]2CSSC[C@@H]3NC(=O)[C@H](CCSC)NC(=O)[C@H](CCC(=O)O)NC(=O)CNC(=O)[C@H](CO)NC(=O)[C@H](CCC(N)=O)NC(=O)[C@H](CCCCN)NC(=O)[C@@H](NC(=O)[C@@H](N)Cc4c[nH]c5ccccc45)CSSC[C@H](NC(=O)[C@H](CSSC[C@@H](C(=O)N[C@H](C(=O)O)[C@@H](C)O)NC(=O)[C@H](C(C)C)NC(=O)[C@H](CC(C)C)NC(=O)[C@H](C(C)C)NC1=O)NC(=O)[C@H](CC(N)=O)NC(=O)[C@H](CCC(N)=O)NC(=O)[C@H](CC(=O)O)NC(=O)[C@H](CC(C)C)NC(=O)[C@H](CC(C)C)NC(=O)[C@H](CC(N)=O)NC3=O)C(=O)N[C@@H](CC(=O)O)C(=O)NCC(=O)N[C@@H](Cc1ccc(O)cc1)C(=O)N2
paralytic effect in crustaceans (Porcellio) [1]: crustaceans (Porcellio) | I–V relationship shift, CaV3.2 ([2]; 0.1 µM, n = 4, p = 0.21): did not shift the I–V relationship | selectivity among CaV3.x ([2]; CaV3.1, 3.2 and 3.3, QPatch): preferentially inhibits CaV3.2 current | Hill coefficient (CaV3.2) ([2]; QPatch, recombinant hCaV3.2, concentration response curve, means ± SEM, n = 5): -1.01 ± 0.37 | effect on CaV3.2 current ([2]; high nanomolar concentrations, QPatch, n = 5): partially inhibited CaV3.2 | IC50 ([2]; read-out: IC50 (CaV3.2), QPatch, recombinant hCaV3.2, HEK293, 200 ms steps to Vmax from −90 mV, means ± SEM, n = 5): 240 nM | current enhancement, CaV3.1 ([3]; 1 µM, QPatch, Vmax at −25 mV, means ± SEM, n = 5, p = 0.04): 10.0% ± 3.9% | I–V relationship shift, CaV3.1 ([3]; 1 µM, n = 5, p = 0.63): not accompanied by shifts in the I–V relationship | effect on CaV3.1 current ([3]; QPatch, n = 5, 1.11 µM and 10 µM in representative traces): promoted the opening of CaV3.1; also recorded: enhances CaV3.1 current at higher concentrations; also recorded: activating activity on CaV3.1 at µM concentrations | functional effect of binding to mammalian NaV channels [4]: non-functional | functional effect on rat brain NaVs ([5]; rat brain NaVs, ref [4]): lack of functional effects on rat brain NaVs | binding to rat brain NaVs ([5]; sites adjacent to the binding sites of CsTx and GPT, ref [4],[5],[6]): binds | paralytic effect in molluscs (Patella) [6]: paralytic effect | effect on CaV3.3 current [7]: little effect | convulsive-like activity in snails [8]: convulsive-like activity in snails | effect on calcium influx in HEK cells transiently expressing mouse NaV1.7 [9]: failed to significantly modify calcium influx | posture of lobsters following injection [10]: dominant posture | paralytic effect in fish (Cambusia) [11]: not in fish | paralytic effect in insects (Sarcophaga) [12]: insects (Sarcophaga) | effect on human NaV responses [13]: did not produce any detectable effect

From paper PMC7401249 (Marine Drugs, 2020)
